Reference: article PMC3561163 (PLoS Neglected Tropical Diseases, 2013)

Tests used:
[1] = test system: PBMCs from YF-17DD vaccinees; experiment: IFN-γ ELISPOT ex vivo, individual peptides (second round); format: cell-based, human; settings: peptide 10 µg/mL, 16 h
[2] = test system: CD4^+ depleted PBMCs from YF-17DD vaccinees; experiment: IFN-γ ELISPOT with CD4-depleted PBMCs; format: cell-based, human
[3] = test system: 14 different HLA class II molecules; experiment: HLA class II binding, panel of 14 molecules (promiscuity); design: species or system human
[4] = CD4-depleted PBMCs of responders, (−) = No response

CSCC[C@H](NC(=O)[C@H](CO)NC(=O)[C@@H](NC(=O)[C@H](C)NC(=O)[C@H](CCSC)NC(=O)[C@@H]1CCCN1C(=O)CNC(=O)[C@H](CC(N)=O)NC(=O)[C@H](Cc1c[nH]c2ccccc12)NC(=O)[C@@H](N)CC(C)C)C(C)C)C(=O)N[C@H](C(=O)NCC(=O)N[C@H](C(=O)N[C@@H](CCSC)C(=O)N[C@@H](CCCNC(=N)N)C(=O)O)C(C)C)[C@@H](C)O
Recognition frequency (%) (Table S1) ([1]; IFN-γ ELISPOT): 19%
No. of responders ([1]; IFN-γ ELISPOT, total PBMC 2 months to 4 years after YF-17DD vaccination, second round, out of (n) 18-59 volunteers tested per peptide): 11
ELISPOT Max ([1]; highest response among responders): 485 SFC/10^6 PBMC
ELISPOT Min ([1]; lowest response among responders): 17 SFC/10^6 PBMC
IFN-γ SFC Average ± STDEV [2, 4]: 101±23 SFC (CD4-depleted PBMCs/10^6)
IFN-γ SFC Median [2, 4]: 101 SFC (CD4-depleted PBMCs/10^6)
No. of responders (CD4-depleted PBMCs) ([2]; PBMCs from 3 volunteers, CD4^+ T-cell depleted, IFN-γ ELISPOT): 3
Level of peptide promiscuity ([3]; by number of HLA class II molecules bound (IC50≤1000 nM) out of 14): highly promiscuous (highly promiscuous (binding to ≥10 HLA molecules))
Total DR bound ([3]; number of the 14 HLA-DR molecules bound with IC50 below the cutoff of 1000): 10

The match of structure and compound is tentative. Marks after values point to notes of the source that are not given here.
